# Results of single-concentration screens

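Growth of Mycobacterium tuberculosis over 4 days (cholesterol / DPPC medium with tyloxapol); the read-out is not stated. Compounds at 50 µM. Higher reads as more growth inhibition (inferred: compounds with an IC50 in retests scored well above the rest). About 69,000 compounds were tested under these conditions; 0.54% (about 370) showed 50% or more at least once.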

Results are given as percent effect. How 0% and 100% were set is not recorded. Most values in the screen are low, and negative values occur. This is part of a subset picked to be rich in strong results. Two or more numbers in one place are separate tests of the same structure; such repeats can differ widely.

Compound	Percent Effect
Clc1cccc(-c2cccc(N3CCC(NC4CCOCC4)CC3)c2)c1	80.29%
CN(CCCO)Cc1cc(Cl)ccc1OCC(O)CN1CCCCCC1 (stereo not shown)	2.139%
COc1cccc(N2CCC(CNCc3cccc(C#N)c3)C2)c1 (stereo not shown)	16.33%
CCC(C)NC(=O)c1cncc(Br)c1 (stereo not shown)	-16.85%
COc1cccc(S(=O)(=O)CCN2CCN(CC(F)F)CC2)c1	5.971%
COc1cc(Oc2ccc(C#N)cn2)ccc1CN1CCCC1	22.68%
O=C(NCCOc1ccc(Cl)cn1)Nc1ccccn1	-6.02% & -7.532%
CC(NC(=O)c1cccs1)C(=O)NCc1ccccn1 (stereo not shown)	4.279%
Br.Cc1ccc(N(CC(=O)c2ccc(Br)cc2)C2=NCCCCC2)cc1	89.71%
CCc1noc(CNc2nc(-c3cccnc3)nc3c2CCNCC3)n1	12.22%
Cc1cnc(C)c(N2CCN(Cc3ccc(C)c(C)c3)CC2)n1	0.09384%
Cc1ccccc1CS(=O)(=O)Cc1nc(C2CC2)no1	0.5152%
CCOc1ccc(N2CCC(C(O)c3ccccc3)CC2)nn1 (stereo not shown)	-11.01%
Cc1ncsc1CCC(=O)N1CCn2cccc2C1c1cccnc1 (stereo not shown)	4.754%
O=C(c1[nH]nc(C2CC2)c1Cl)N1CCN(C2CC2)CC1	12.16%
Br.O=C(CN(C1=NCCCC1)c1ccccc1)c1ccc(OC(F)F)cc1	56.27%
CN(CC(C)(CO)CO)C(=O)Nc1cc(F)cc(F)c1	12.63%
CN(C)c1cc(C(=O)N2CCN(c3cc(C#N)ccn3)CC2)ccn1	0.6828%
COC(=O)C(NC(=O)c1ccc(N(C)C)nc1)c1ccccc1 (stereo not shown)	56%
O=C(NCCNc1ccc(C(F)(F)F)cn1)c1cncc(Br)c1	-20.31%
COCCCN1CCCN(C(C)C(=O)Nc2ccnn2C(C)C)CC1 (stereo not shown)	2.937% & 9.082%
CN(Cc1cccnc1)CC1CC12CCN(Cc1nccs1)CC2 (stereo not shown)	-20.14%
NC(=O)c1ccc(CNC2CCCSC2)cc1 (stereo not shown)	13.63%
CCN1c2ccc(-c3cncn3CCCn3ccnc3C)cc2CC1C.Cl (stereo not shown)	35.25% & 59.65%
Cl.Clc1cccc(N[C@H]2CCCN[C@H]2Cc2ccccc2)c1	111.3%
COCCN1CCC(NCc2ccc(Cl)cc2)C1 (stereo not shown)	-3.096%
COCCC1(CNC(=O)NCC2CCCS2)CCCC1 (stereo not shown)	57.24%
CCOC(=O)c1cc(C(C)(O)CCC=C(C)C)on1 (stereo not shown)	115.2%
CN(Cc1cccs1)C(=O)c1ccc(=O)n(C)c1	8.769%
COc1cccc(CNc2cccnc2-n2cccn2)c1OC	14.19%
COCc1nn(Cc2ccc(Cl)s2)c(=O)o1	37.94%
O=C(CC(SC1CCCCC1)C(=O)O)c1ccc(Cl)cc1 (stereo not shown)	-0.1851%
CCc1cc(=O)[nH]c(-n2nc(C3CC3)cc2NC(=O)C2CC2)n1	42.71%
Clc1ccc(NCc2nnc(C3CC3)o2)cc1Cl	45.16%
CCOC(=O)N1CCC(Oc2ccc(C(F)(F)F)cn2)CC1	35.52%
CN(C)CCN1C(=O)CCC12CCCN(C(=O)c1cccnc1)CC2.O=C(O)C(F)(F)F.O=C(O)C(F)(F)F (stereo not shown)	1.071% & 52.15%
Cc1cc(C(=O)N2CCN(c3nc4ccccc4s3)CC2)no1	-36.3%
FC(F)(F)c1ccc2nc([C@H]3CCN(C4CCC4)C3)[nH]c2c1	14.15%
Cl.Cn1nc(C2CCCN(Cc3ccc(F)cc3)C2)c2nccnc21 (stereo not shown)	0.6337%
COc1ccc(C(C)NCCC(N)=O)cc1F (stereo not shown)	-5.91%
CC(C)n1cc(C(=O)NCC(CO)Cc2cccs2)cn1 (stereo not shown)	4.694%
CN(Cc1cnn(C)c1)C(=O)CCC(=O)c1ccc2c(c1)OCCO2	-0.8241%
Cc1ccc(-c2cc(CS(=O)(=O)NC3CCCNC3=O)on2)cc1 (stereo not shown)	53.31%
CCCN1CCC(NC(=O)Nc2ccc(OC)c(OC)c2)CC1	-17.61% & -2.805%
Cc1cc2c(cc1Cl)C=CC1(CCN(CC(=O)N3CCCC3)CC1)O2	6.952% & 38.48%
O=S(=O)(NCCNc1ccc(-n2cccn2)nn1)c1ccccc1	63.29%
CCc1ccccc1OC1CN(C(=O)c2cccs2)C1	46.05% & 48.79%
CC(O)c1cccc(N2CCC3(CC2)Nc2ccccc2NC3=O)n1 (stereo not shown)	1.62%
Cl.O=c1c2sccc2nc2n1CCN(Cc1ccccc1C(F)(F)F)CC2	120.3%
CC(C)c1ccc(OCn2ccc(C(=O)N3CCCC3)n2)cc1	53.14%
COc1cn(CC(=O)N2CCN(c3ccc(F)cc3)CC2)c(C)cc1=O	0.2278%
CCCc1ccc(C(=O)N2CCn3c(nnc3C(C)C)C2)cc1	11.98%
CCc1ccc(C(=O)NCc2cccc(S(=O)(=O)NC)c2)o1	2.955%
Cc1nc(O)c2c(n1)CCN(Cc1cc(C)sc1C)CC2	13.52%
CN1CCOC(CNCCCOc2ccc(C#N)cc2)C1 (stereo not shown)	3.338%
O=c1[nH]nc(CNCc2ccc(OC34CCCN(CC3)C4)cc2)[nH]1 (stereo not shown)	15.2%
Cc1ccn(-c2ccc(NCc3cccnc3N3CCCCC3)nn2)n1	-119.6% & 9.22%
O=C(NCCN1CCOCC1)c1ccc(-c2ccccc2)[nH]c1=O	-16.02%
O=c1n(CCSCCOc2ccc(Br)cc2)nc2ccccn12	-10.6%

Once more, the final 7:

* CCc1ccc(C(=O)NCc2cccc(S(=O)(=O)NC)c2)o1 | 2.955%
* Cc1nc(O)c2c(n1)CCN(Cc1cc(C)sc1C)CC2 | 13.52%
* CN1CCOC(CNCCCOc2ccc(C#N)cc2)C1 (stereo not shown) | 3.338%
* O=c1[nH]nc(CNCc2ccc(OC34CCCN(CC3)C4)cc2)[nH]1 (stereo not shown) | 15.2%
* Cc1ccn(-c2ccc(NCc3cccnc3N3CCCCC3)nn2)n1 | -119.6% & 9.22%
* O=C(NCCN1CCOCC1)c1ccc(-c2ccccc2)[nH]c1=O | -16.02%
* O=c1n(CCSCCOc2ccc(Br)cc2)nc2ccccn12 | -10.6%

Data taken from ChEMBL document CHEMBL3988442, “University of Dundee, Small-Polar-MMV Screening Library” (2021).